Reference: publication PMC8046379, “Fragment binding to the Nsp3 macrodomain of SARS-CoV-2 identified through crystallographic screening and computational docking” (Science Advances, 2021)

Target: SARS-CoV-2 Nsp3 Mac1 (Severe acute respiratory syndrome coronavirus 2, UniProt P0DTD1)
Details: read-out: Peptide displacement IC50

adenosine diphosphate ribose [ADP-ribose, reference compound]
pIC50: 6.79

pIC50: −log10 of the molar value.
